Measured values from patent publication US20190100761A1, “COMPOSITIONS AND METHODS FOR ENHANCED GENE EXPRESSION AND VIRAL REPLICATION” (priority 2016, published 2019).
The exact form of at least one protein or probe is not confirmed. At least one result comes from cells or an extract, where the contact may be indirect. Protein sequences can lack the tags named with them.

Experiments:
Experiment in all cases: binding assay
YTHDF1 (Homo sapiens) = biological target: T1, YTHDF1 (Homo sapiens) (UniProt Q9BYJ9); conditions: 4SU, PAR-CLIP, protein in cells, protein details: FLAG, stably expressed in 293T
T1 sequence: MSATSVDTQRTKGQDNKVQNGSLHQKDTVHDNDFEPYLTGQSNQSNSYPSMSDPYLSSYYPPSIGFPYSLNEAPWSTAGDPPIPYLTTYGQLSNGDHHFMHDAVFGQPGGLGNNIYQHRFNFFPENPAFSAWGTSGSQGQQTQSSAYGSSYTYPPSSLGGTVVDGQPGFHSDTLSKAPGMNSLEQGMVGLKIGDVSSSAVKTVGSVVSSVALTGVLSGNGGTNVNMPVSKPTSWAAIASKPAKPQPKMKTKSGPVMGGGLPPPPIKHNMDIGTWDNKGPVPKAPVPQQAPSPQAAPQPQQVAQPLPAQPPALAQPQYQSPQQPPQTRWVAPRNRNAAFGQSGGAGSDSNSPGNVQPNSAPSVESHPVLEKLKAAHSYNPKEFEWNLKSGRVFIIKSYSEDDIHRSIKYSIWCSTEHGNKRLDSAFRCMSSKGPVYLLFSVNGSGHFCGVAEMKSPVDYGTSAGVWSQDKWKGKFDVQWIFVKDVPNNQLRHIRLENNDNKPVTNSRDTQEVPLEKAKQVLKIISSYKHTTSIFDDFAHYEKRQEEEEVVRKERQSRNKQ

YTHDF2 (Homo sapiens) = biological target: T2, YTHDF2 (Homo sapiens) (UniProt Q9Y5A9); conditions: 4SU, PAR-CLIP, protein in cells, protein details: FLAG, stably expressed in 293T
T2 sequence: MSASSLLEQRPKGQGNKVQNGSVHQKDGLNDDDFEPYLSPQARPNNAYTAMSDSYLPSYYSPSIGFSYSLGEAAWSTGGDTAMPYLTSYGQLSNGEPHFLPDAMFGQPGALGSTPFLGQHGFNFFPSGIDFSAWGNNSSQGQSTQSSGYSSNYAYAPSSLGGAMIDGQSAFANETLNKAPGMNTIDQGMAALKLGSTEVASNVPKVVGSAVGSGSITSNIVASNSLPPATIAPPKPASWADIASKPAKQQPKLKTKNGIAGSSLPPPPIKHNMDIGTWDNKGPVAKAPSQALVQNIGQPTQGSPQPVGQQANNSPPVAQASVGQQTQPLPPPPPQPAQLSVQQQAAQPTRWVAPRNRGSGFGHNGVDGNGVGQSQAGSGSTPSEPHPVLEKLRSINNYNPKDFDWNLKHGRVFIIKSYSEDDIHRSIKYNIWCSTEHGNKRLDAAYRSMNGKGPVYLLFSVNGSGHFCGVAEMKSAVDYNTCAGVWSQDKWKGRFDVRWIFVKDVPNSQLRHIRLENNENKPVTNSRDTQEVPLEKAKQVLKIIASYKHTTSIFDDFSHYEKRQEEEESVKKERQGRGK

YTHDF3 (Homo sapiens) = biological target: T3, YTHDF3 (Homo sapiens) (UniProt Q7Z739); conditions: m6A in RAC motifs; 4SU; PAR-CLIP, infected 293T; four clusters bound; protein in cells; protein details: FLAG, stably expressed in 293T
T3 sequence: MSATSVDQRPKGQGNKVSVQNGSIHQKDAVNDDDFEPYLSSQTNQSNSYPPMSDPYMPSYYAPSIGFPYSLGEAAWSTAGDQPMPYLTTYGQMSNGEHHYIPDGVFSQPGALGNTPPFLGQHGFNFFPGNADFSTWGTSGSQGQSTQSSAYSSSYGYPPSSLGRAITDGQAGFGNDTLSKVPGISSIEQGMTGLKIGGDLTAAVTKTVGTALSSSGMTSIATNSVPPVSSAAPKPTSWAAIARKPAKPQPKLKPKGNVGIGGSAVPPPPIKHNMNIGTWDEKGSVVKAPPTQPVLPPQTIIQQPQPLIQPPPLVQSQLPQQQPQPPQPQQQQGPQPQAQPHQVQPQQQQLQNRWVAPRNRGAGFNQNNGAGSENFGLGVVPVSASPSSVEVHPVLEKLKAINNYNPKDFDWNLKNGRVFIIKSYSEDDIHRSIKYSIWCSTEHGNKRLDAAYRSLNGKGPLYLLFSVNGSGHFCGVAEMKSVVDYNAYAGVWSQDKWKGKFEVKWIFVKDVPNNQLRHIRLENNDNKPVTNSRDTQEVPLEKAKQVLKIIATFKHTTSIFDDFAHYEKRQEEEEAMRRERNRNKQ

[1] = m6A at A3, only the motif is given
[2] = m6A at A3, intense site, absent in NL4-3 and JR-CSF, only the motif is given
[3] = m6A in RAC motifs, infected 293T, four clusters bound

GGACA [HIV-1 JR-CSF novel site JR-CSF1]
binding result (YTHDF1 (Homo sapiens); [1]): binds | binding result (YTHDF2 (Homo sapiens); [1]): binds

GGACC [HIV-1 BaL novel site BaL1]
binding result (YTHDF1 (Homo sapiens); [2]): binds | binding result (YTHDF2 (Homo sapiens); [2]): binds

GGACU [HIV-1 JR-CSF novel site JR-CSF2]
binding result (YTHDF1 (Homo sapiens); [1]): binds | binding result (YTHDF2 (Homo sapiens); [1]): binds

GGAUCCUUAGCACUUAUCUGGGACGAUCUGCGGAGCCUGUGCCUCUUCAGCUACCACCGCUUGAGAGACUUACUCUUGAUUGUAACGAGGAUUGUGGAACUUCUGGGACGCAGGGGGUGGGAAGCCCUCAAAUAUUGGUGGAAUCUCCUACAGUAUUGGAGUCAGGAACUAAAGAAUAGUGCUGUUAACUUGCUCAAUGCCACAGCCAUAGCAGUAGCUGAGGGGACAGAUAGGGUUAUAGAAGUAUUACAAGCAGCUUAUAGAGCUAUUCGCCACAUACCUAGAAGAAUAAGACAGGGCUUGGAAAGGAUUUUGCUAUAAGAUGGGUGGCAAGUGGUCAAAAAGUAGUGUGAUUGGAUGGCCUGCUGUAAGGGAAAGAAUGAGACGAGCUGAGCCAGCAGCAGAUGGGGUGGGAGCAGUAUCUCGAGACCUAGAAAAACAUGGAGCAAUCACAAGUAGCAAUACAGCAGCUAACAAUGCUGCUUGUGCCUGGCUAGAAGCACAAGAGGAGGAAGAGGUGGGUUUUCCAGUCACACCUCAGGUACCUUUAAGACCAAUGACUUACAAGGCAGCUGUAGAUCUUAGCCACUUUUUAAAAGAAAAGGGGGGACUGGAAGGGCUAAUUCACUCCCAAAGAAGACAAGAUAUCCUUGAUCUGUGGAUCUACCACACACAAGGCUACUUCCCUGAUUGGCAGAACUACACACCAGGGCCAGGGGUCAGAUAUCCACUGACCUUUGGAUGGUGCUACAAGCUAGUACCAGUUGAGCCAGAUAAGGUAGAAGAGGCCAAUAAAGGAGAGAACACCAGCUUGUUACACCCUGUGAGCCUGCAUGGAAUGGAUGACCCUGAGAGAGAAGUGUUAGAGUGGAGGUUUGACAGCCGCCUAGCAUUUCAUCACGUGGCCCGAGAGCUGCAUCCGGAGUACUUCAAGAACUGCUGACAUCGAGCUUGCUACAAGGGACUUUCCGCUGGGGACUUUCCAGGGAGGCGUGGCCUGGGCGGGACUGGGGAGUGGCGAGCCCUCAGAUGCUGCAUAUAAGCAGCUGCUUUUUGCCUGUACUGGGUCUCUCUGGUUAGACCAGAUCUGAGCCUGGGAGCUCUCUGGCUAACUAGGGAACCCACUGCUUAAGCCUCAAUAAAGCUUGCCUUGAGUGCUUCAAGUAGUGUGUGCCCGUCUGUUGUGUG [HIV-1 NL4-3 3' region (env/rev, nef, U3/NF-kB, TAR clusters)]
binding result (YTHDF1 (Homo sapiens); [3]): binds | binding result (YTHDF2 (Homo sapiens); [3]): binds | binding result (YTHDF3 (Homo sapiens)): binds
